# Sequence variants of PSTVd loop 15 after infection

Values reported by Wu et al. 2024 (doi:10.1371/journal.ppat.1012142).

Region: loop 15 of PSTVd (intermediate strain), upper and lower strand joined, each 5' to 3', the first 7 letters being the upper strand, closing pairs included. Wild type: GGAAACCGCUACUAC. Varied positions (N): GGAAACCGNNNNNNC.

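Three N. benthamiana plants were inoculated with the whole mutant pool. Progeny were sequenced from the inoculated region (day 5), the margin of the inoculated leaf (day 10) and systemic leaves (day 12).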

Numbers give reads per thousand; 0 = not seen among the reads, higher = more abundant. Each site shows the three plants. "Pool" is the share in the plasmid pool used as inoculum, on the same scale. The inoculated region was read from the minus strand, the other sites from the plus strand. IR is the inoculated region, LM the leaf margin, Sys the systemic leaves. Samples held 43,870 to 66,106 reads, so the smallest values rest on one or two reads. The authors trace changes outside the varied positions to PCR and sequencing errors or to mutation in the plant; presence does not show that a variant is infectious alone. Wild type was 33.9 per thousand in the pool and the most common sequence in every sample (inoculated region 202, 200, 159; leaf margin 724, 746, 710; systemic leaves 856, 883, 880).

For GGAAACCGGCGCAUC (pool 0.176) the result was IR 0.0655 / 0.129 / 0.133; LM 0.0162 / 0.0223 / 0.0601; Sys 0.0161 / 0 / 0. GGAAACCGGUAUCCC (pool 0.304) read IR 0.0819 / 0.0643 / 0.133; LM 0.0162 / 0 / 0; Sys 0 / 0 / 0. For GGAAACCGGUUGGCC (pool 0.272) the result was IR 0.164 / 0.0482 / 0.0762; LM 0 / 0.0223 / 0; Sys 0 / 0 / 0. GGAAACCGAAGUGGC (pool 0.208) read IR 0.0819 / 0.129 / 0.133; LM 0 / 0 / 0.0200; Sys 0 / 0 / 0. GGAAACCGACAUUCC (pool 0.272) read IR 0.0328 / 0.0321 / 0.190; LM 0 / 0 / 0.0200; Sys 0.0161 / 0 / 0. With GGAAACCGCAGUUUC (pool 0.224) the assay gave IR 0.131 / 0.112 / 0.114; LM 0.0323 / 0 / 0; Sys 0 / 0 / 0. GGAAACCGACUCCGC (pool 0.144) gave IR 0.0819 / 0.0643 / 0.0571; LM 0 / 0 / 0; Sys 0 / 0 / 0. GGAAACCGGCAACAC (pool 0.144) gave IR 0.0983 / 0.209 / 0.0952; LM 0 / 0 / 0; Sys 0 / 0 / 0. GGAAACCGCCGUAAC (pool 0.208) gave IR 0.0328 / 0.161 / 0.228; LM 0 / 0 / 0; Sys 0.0161 / 0 / 0.

GGAAACCGGGAUUUC (pool 0.176) read IR 0.442 / 0.337 / 0.343; LM 0.0808 / 0.0668 / 0.160; Sys 0.0483 / 0 / 0. For GGAAACCGAUCCGGC (pool 0.304) the result was IR 0.197 / 0.418 / 0.190; LM 0 / 0.0223 / 0.0601; Sys 0 / 0 / 0. For GGAAACCGACUAAAC (pool 0.304) the result was IR 0.0819 / 0.145 / 0.0571; LM 0 / 0.0445 / 0; Sys 0 / 0 / 0. For GGAAACCGAGGCGAC (pool 0.224) the result was IR 0.0983 / 0.0803 / 0.0571; LM 0 / 0 / 0; Sys 0 / 0 / 0. For GGAAACCGCCGUGAC (pool 0.352) the result was IR 0.131 / 0.112 / 0.190; LM 0 / 0 / 0.0200; Sys 0.0161 / 0 / 0. GGAAACCGGCCGAAC (pool 0.176) gave IR 0.278 / 0.337 / 0.267; LM 0.0647 / 0.111 / 0.160; Sys 0 / 0 / 0. GGAAACCGAGGGGCC (pool 0.224) read IR 0.0491 / 0.0643 / 0.0571; LM 0 / 0 / 0.0200; Sys 0 / 0 / 0. For GGAAACCGCUAGCGC (pool 0.192) the result was IR 0.0819 / 0.112 / 0.0190; LM 0.0162 / 0.0223 / 0; Sys 0 / 0 / 0. GGAAACCGGUGUCAC (pool 0.256) gave IR 0.115 / 0.0643 / 0.114; LM 0 / 0 / 0.0200; Sys 0.0161 / 0 / 0.

GGAAACCGAUUGGGC (pool 0.192) gave IR 0.147 / 0.209 / 0.152; LM 0.0162 / 0 / 0; Sys 0 / 0.0151 / 0. For GGAAACCGCUUAUAC (pool 0.240) the result was IR 0.393 / 0.241 / 0.305; LM 0.129 / 0.111 / 0.100; Sys 0.0644 / 0 / 0.137. With GGAAACCGAUACCCC (pool 0.272) the assay gave IR 0.0491 / 0.0482 / 0.152; LM 0 / 0 / 0; Sys 0 / 0 / 0. GGAAACCGCUAUGAC (pool 0.368) gave IR 0.0819 / 0.0803 / 0.190; LM 0 / 0 / 0.0200; Sys 0 / 0 / 0. GGAAACCGAUGCGUC (pool 0.160) gave IR 0.164 / 0.193 / 0.114; LM 0.0162 / 0 / 0; Sys 0 / 0 / 0. With GGAAACCGAGCAUGC (pool 0.304) the assay gave IR 0.131 / 0.0643 / 0.0381; LM 0 / 0.0223 / 0; Sys 0 / 0 / 0. GGAAACCGGCCAUAC (pool 0.128) gave IR 0.409 / 0.386 / 0.438; LM 0.129 / 0.134 / 0.220; Sys 0.0322 / 0.0605 / 0.0684. For GGAAACCGCCAGUGC (pool 0.272) the result was IR 0.246 / 0.450 / 0.400; LM 0.113 / 0.156 / 0.120; Sys 0.129 / 0.0303 / 0.114. With GGAAACCGACACGGC (pool 0.176) the assay gave IR 0.147 / 0.0803 / 0.0571; LM 0.0162 / 0.0223 / 0; Sys 0 / 0 / 0.

3 of these entries, quoted again:

With GGAAACCGACACGGC (pool 0.176) the assay gave IR 0.147 / 0.0803 / 0.0571; LM 0.0162 / 0.0223 / 0; Sys 0 / 0 / 0.
With GGAAACCGGUGUCAC (pool 0.256) the assay gave IR 0.115 / 0.0643 / 0.114; LM 0 / 0 / 0.0200; Sys 0.0161 / 0 / 0.
With GGAAACCGACAUUCC (pool 0.272) the assay gave IR 0.0328 / 0.0321 / 0.190; LM 0 / 0 / 0.0200; Sys 0.0161 / 0 / 0.